In patent publication US12172959B2, “Mono- or di-substituted indole derivatives as dengue viral replication inhibitors” (priority 2015, dated 2024):

Columns and labels:
Assay type in all cases: cell-based, Dengue virus
[1] = test system: DENV-4 strain SG/06K2270DK1/2005 (Eden); experiment: Tetravalent RT-qPCR assay Protocol A, serotype 4 EDEN; details: RT-qPCR serotype 4 EDEN, ratio CC50 / EC50
Procedure: (§1) The antiviral activity of the compounds of the invention was tested against DENV-1 strain TC974#666 (NCPV; Table 6), DENV-2 strain 16681 (Table 7), DENV-3 strain H87 (NCPV; Table 8) and DENV-4 strains H241 (NCPV; Table 9A) and SG/06K2270DK1/2005 (Eden; Table 9B) in a RT-qPCR assay. Therefore, Vero cells were infected with either DENV-1, or -2, or -3, or -4 in the presence or absence of test compounds. At day 3 post-infection, the cells were lysed and cell lysates were used to prepare cDNA of both a viral target (the 3′UTR of DENV; Table 2) and a cellular reference gene (β-actin, Table 2). Subsequently, a duplex real time PCR was performed on a Lightcycler480 instrument. The generated Cp value is inversely proportional to the amount of RNA expression of these targets. Inhibition of DENV replication by test compound results in a shift of Cp's for the 3′UTR gene. On the other hand, if a test compound is toxic to the cells, a similar effect on β-actin expression will be observed. The comparative ΔΔCp method is used to calculate EC50, which is based on the relative gene expression of the target gene (3′UTR) normalized with the cellular housekeeping gene (β-actin).
(§2) The culture medium consisted of minimal essential medium supplemented with 2% of heat-inactivated fetal calf serum, 0.04% gentamycin (50 mg/mL) and 2 mM of L-glutamine. Vero cells, obtained from ECACC, were suspended in culture medium and 75 μL/well was added in 96-well plates (10000 cells/well), which already contain the antiviral compounds. […] In addition, each plate contains wells which are assigned as virus controls (containing cells and virus in the absence of compound) and cell controls (containing cells in the absence of virus and compound). Once the cells were added in the plates, the plates were incubated in a fully humidified incubator (37° C., 5% CO2) until the next day. Dengue viruses serotype-1, 2, 3 and 4 were diluted in order to obtain a Cp of ˜22-24 in the assay. Therefore, 25 μL of virus suspension was added to all the wells containing test compound and to the wells assigned as virus control. In parallel, 25 μL of culture medium was added to the cell controls. Next, the plates were incubated for 3 days in a fully humidified incubator (37° C., 5% CO2). After 3 days, the supernatant was removed from the wells and the cells were washed twice with ice-cold PBS (˜100 μL). The cell pellets within the 96-well plates were stored at −80° C. for at least 1 day. Next, RNA was extracted using the Cells-to-CT™ lysis kit, according to the manufacturer's guideline (Life Technologies). The cell lysates can be stored at −80° C. or immediately used in the reverse transcription step.
(§3) In preparation of the reverse transcription step, mix A (table 3A) was prepared and 7.57 μL/well was dispensed in a 96-well plate. After addition of 5 μL of the cell lysates, a five minute denaturation step at 75° C. was performed (table 3B). Afterwards, 7.43 μL of mix B was added (table 3C) and the reverse transcription step was initiated (table 3D) to generate cDNA.
(§4) Finally, a RT-qPCR mix was prepared, mix C (table 4A), and 22.02 μL/well was dispensed in 96-well LightCycler qPCR plates to which 3 μL of cDNA was added and the qPCR was performed according to the conditions in table 4B on a LightCycler 480.
(§5) Using the LightCycler software and an in-house LIMS system, dose response curves for each compound were calculated and the half maximal effective concentration (EC50) and the half maximal cytotoxic concentration (CC50) were determined.

[2] = test system: DENV-2 16681 strain; experiment: DENV-2 antiviral assay (eGFP fluorescence, Vero cells); details: SI=CC50/EC50, DENV-2 antiviral assay
Procedure: The antiviral activity of all the compounds of the invention was tested against the DENV-2 16681 strain which was labeled with enhanced green fluorescent protein (eGPF; Table 1). The culture medium consists of minimal essential medium supplemented with 2% of heat-inactivated fetal calf serum, 0.04% gentamycin (50 mg/mL) and 2 mM of L-glutamine. Vero cells, obtained from ECACC, were suspended in culture medium and 25 μL was added to 384-well plates (2500 cells/well), which already contain the antiviral compounds. Typically, these plates contain a 5-fold serial dilution of 9 dilution steps of the test compound at 200 times the final concentration in 100% DMSO (200 nL). […] Finally, each plate contains wells which are assigned as virus controls (containing cells and virus in the absence of compound), cell controls (containing cells in the absence of virus and compound) and medium controls (containing medium in the absence of cells, virus and compounds). To the wells assigned as medium control, 25 μL of culture medium was added instead of Vero cells. Once the cells were added to the plates, the plates were incubated for 30 minutes at room temperature to allow the cells to distribute evenly within the wells. Next, the plates were incubated in a fully humidified incubator (37° C., 5% CO2) until the next day. Then, DENV-2 strain 16681, labeled with eGFP, was added at a multiplicity of infection (MOI) of 0.5. Therefore, 15 μL of virus suspension was added to all the wells containing test compound and to the wells assigned as virus control. In parallel, 15 μL of culture medium was added to the medium and cell controls. Next, the plates were incubated for 3 days in a fully humidified incubator (37° C., 5% CO2). At the day of the read out, the eGFP fluorescence was measured using an automated fluorescence microscope at 488 nm (blue laser). Using an in-house LIMS system, inhibition dose response curves for each compound were calculated and the half maximal effective concentration (EC50) was determined. Therefore, the percent inhibition (I) for every test concentration is calculated using the following formula: I=100*(ST−SCC)/(SVC−SCC); ST, SCC and SVC are the amount of eGFP signal in the test compound, cell control and virus control wells, respectively. The EC50 represents the concentration of a compound at which the virus replication is inhibited with 50%, as measured by a 50% reduction of the eGFP fluorescent intensity compared to the virus control. The EC50 is calculated using linear interpolation.

[3] = test system: DENV-1 strain TC974#666; experiment: Tetravalent RT-qPCR assay Protocol A, serotype 1; details: RT-qPCR serotype 1 TC974#666
Procedure: as §1, §2, §3, §4, §5

[4] = test system: DENV-2 strain 16681; experiment: Tetravalent RT-qPCR assay Protocol A, serotype 2; details: RT-qPCR serotype 2 16681
Procedure: as §1, §2, §3, §4, §5

[5] = test system: DENV-4 strain H241; experiment: Tetravalent RT-qPCR assay Protocol A, serotype 4 H241; details: RT-qPCR serotype 4 H241
Procedure: as §1, §2, §3, §4, §5

[6] = test system: DENV-3 strain H87; experiment: Tetravalent RT-qPCR assay Protocol A, serotype 3; details: RT-qPCR serotype 3 H87
Procedure: as §1, §2, §3, §4, §5

Compound	SI [1]	SI [2]	SI [3]	SI [4]	SI [5]	SI [6]
COc1cc(NC(C(=O)c2c[nH]c3cc(F)ccc23)c2ccc(Cl)cc2OC)cc(S(C)(=O)=O)c1 (single isomer, unassigned) [Compound 1A, 2-(4-chloro-2-methoxyphenyl)-1-(6-fluoro-1H-indol-3-yl)-2-((3-methoxy-5-(methylsulfonyl)phenyl)amino)ethanone]	1927	19700				
COc1cc(NC(C(=O)c2c[nH]c3c(C)c(F)ccc23)c2ccc(Cl)cc2OC)cc(S(C)(=O)=O)c1 (single isomer, unassigned) [Compound 2A, 2-(4-chloro-2-methoxyphenyl)-1-(6-fluoro-7-methyl-1H-indol-3-yl)-2-((3-methoxy-5-(methylsulfonyl)phenyl)amino)ethanone]	3913	22000				
COc1cc(NC(C(=O)c2c[nH]c3cc(OC)ccc23)c2ccc(Cl)cc2OC)cc(S(C)(=O)=O)c1 (single isomer, unassigned) [Compound 3A, 2-(4-chloro-2-methoxyphenyl)-1-(6-methoxy-1H-indol-3-yl)-2-((3-methoxy-5-(methylsulfonyl)phenyl)amino)ethanone]	1802	29800	1360	9970	37	67
COc1cc(NC(C(=O)c2c[nH]c3cc(OC)c(C)cc23)c2ccc(Cl)cc2OC)cc(S(C)(=O)=O)c1 (single isomer, unassigned) [Compound 4A, 2-(4-chloro-2-methoxyphenyl)-2-((3-methoxy-5-(methyl-sulfonyl)phenyl)amino)-1-(6-methoxy-5-methyl-1H-indol-3-yl)ethanone]	>4520	16900				
COc1cc(NC(C(=O)c2c[nH]c3cc(OC)c(F)cc23)c2ccc(Cl)cc2OC)cc(S(C)(=O)=O)c1 (single isomer, unassigned) [Compound 5A, 2-(4-chloro-2-methoxyphenyl)-1-(5-fluoro-6-methoxy-1H-indol-3-yl)-2-((3-methoxy-5-(methylsulfonyl)phenyl)amino)ethanone]	1878	12900				
COc1cc(NC(C(=O)c2c[nH]c3c(C)c(OC)ccc23)c2ccc(Cl)cc2OC)cc(S(C)(=O)=O)c1 (single isomer, unassigned) [Compound 6A, 2-(4-chloro-2-methoxyphenyl)-2-((3-methoxy-5-(methyl-sulfonyl)phenyl)amino)-1-(6-methoxy-7-methyl-1H-indol-3-yl)ethanone]	>24085	>65500				
